Laboratory results from PMC6879241 (Antimicrobial Agents and Chemotherapy, 2019).

Tested on: B. pseudomallei 1026b

Compound | MIC for the parent strain | wild-type MICs, average fold higher than the MICs for GC-072
CC(C)(O/N=C(\C(=O)N[C@@H]1C(=O)N2C(C(=O)[O-])=C(C[n+]3ccccc3)CS[C@H]12)c1csc(N)n1)C(=O)O [Ceftazidime, ceftazidime] | 1 to 2 µg/mL | 7.2 fold
Cc1c(-c2cc(F)c(N)cc2F)ccn2c(=O)c(C(=O)O)cc(C3CC3)c12 [GC-072] | 0.125 to 0.25 µg/mL | 
